Tests used:
[1] = tested on: Eagle/FL/22 (H5N1)
[2] = tested on: Wigeon/SC/21 (H5N1)
[3] = tested on: rg-A/CA/04 (PA I38-WT) (H1N1)pdm09
[4] = tested on: Scaup/GA/22 (H5N1)
[5] = tested on: Ck/NL/21 (H5N1)
[6] = biological target: NA of Ck/NL/21 (H5N1) (Influenza A virus, UniProt Q9Q0U7)
[7] = biological target: NA of Eagle/NC/22 (H5N1) (Influenza A virus, UniProt Q9Q0U7)
[8] = biological target: NA of Eagle/FL/22 (H5N1) (Influenza A virus, UniProt Q9Q0U7)
[9] = biological target: NA of Hawk/NC/22 (H5N1) (Influenza A virus, UniProt Q9Q0U7)
[10] = biological target: NA of Scaup/GA/22 (H5N1) (Influenza A virus, UniProt Q9Q0U7)
[11] = biological target: NA of Wigeon/SC/21 (H5N1) (Influenza A virus, UniProt Q9Q0U7)

By UniProt entry, the sequences of proteins in these tests, tags left out. Where a name states a change or a piece, a line headed by the entry shows the natural chain unless it says otherwise.
UniProt Q9Q0U7: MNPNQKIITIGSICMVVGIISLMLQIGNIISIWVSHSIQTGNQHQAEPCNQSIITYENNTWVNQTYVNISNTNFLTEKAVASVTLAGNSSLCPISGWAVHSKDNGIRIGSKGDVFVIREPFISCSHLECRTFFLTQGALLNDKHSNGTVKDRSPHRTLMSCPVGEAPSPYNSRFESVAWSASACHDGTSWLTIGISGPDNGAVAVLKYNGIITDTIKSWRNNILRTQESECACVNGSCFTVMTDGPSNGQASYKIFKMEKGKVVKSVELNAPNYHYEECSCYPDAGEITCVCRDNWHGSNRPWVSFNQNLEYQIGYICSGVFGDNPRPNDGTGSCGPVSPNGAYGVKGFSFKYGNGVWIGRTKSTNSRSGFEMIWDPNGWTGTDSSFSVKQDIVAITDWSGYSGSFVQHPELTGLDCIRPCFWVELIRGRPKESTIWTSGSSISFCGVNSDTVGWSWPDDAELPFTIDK

O=C1c2c(O)c(=O)ccn2N([C@@H]2c3ccccc3SCc3c2ccc(F)c3F)[C@@H]2COCCN12
EC50 [1]: 0.22 nM
EC50 [2]: 0.16 nM
EC50 [3]: 0.19 nM
EC50 [4]: 0.17 nM
EC50 [5]: 0.09 nM

oseltamivir carboxylate
IC50 [6]: 1.26 nM
IC50 [7]: 1.07 nM
IC50 [8]: 0.98 nM
IC50 [9]: 1.34 nM
IC50 [10]: 1.13 nM
IC50 [11]: 1.25 nM

— publication PMC10227026, “Rapid evolution of A(H5N1) influenza viruses after intercontinental spread to North America” (2023)
